Earlier results as cited in patent US10073089B2 (priority 2011, dated 2018).

System: torpedo electrocyte membranes

Substance	Sensitivity (amount in μg of toxin in the well)	Quantification range (nM)
13-desmethyl spirolide C [13-SPX C]	13-SPX C: 85 μg	–
gymnodimine A [GYM A]	–	GYM A: 12.5-500 nM
